Source: PMC5947656
Construct, isoform or probe ends are uncertain for at least one entry.

Tested on: CsoR
Assay: EMSA
Settings: apo (metal-free) CsoR, anaerobic, 0-100 uM, 20 mM Hepes, 100 mM NaCl, pH 7.0, 1 mM DTT, 0.4 mg/ml BSA, 100 ng/ul poly(dI-dC), 100 nM target DNA + 100 nM control DNA, 30 min, room temperature, recombinant protein, residues 1-97, label: none (SYBR Safe stain), probe letters rebuilt from the primers and the genome, part of a longer molecule

Sequence | binding result
ATTTCTTTTAAGTCACCTAAGAATTGCAAATCCAGAAGTCATTTAAGTTTTACCTTTCATTCATACATCCTTTAATATTAATTACGACTTCTTTTATATAGATGCTAAGTAGAGAGATTGTTGTGCAATGTTTGCACGGCAATCTCTCTTTTTCTTTTTAAAATTGGTAAAAGTAAAACGCAACGATTGACTTATATACCTATAGGGGGTACATTAGACGTGTAACAATGAATCACAGGGAGGCAATAATGTGG (double strand) [PcopA] | binds
CTTTAAGAATATTAATATATGACTTGTGTTGGTAATGATAACCTTGGTTAGAGTGTATTGTCATGTGATAGTTAAGATTAGATCTTTTAATTAAAACATTGTTTTAAATATCGATGACAAGGTCTAATGTAGGACGTGTAGATATAAGGTTCGGAATTATATAAATCCATAAAAGGAGATAAATCGAAAACCTTTATACCCTGGGTGGGTATATGTTATAGTATAAGTAGCTTTACTATAACATTTTCATTAGGAGGGGTTAATTTG (double strand) [PcopX] | binds
